Anti-infective test results gathered from many reports (values: NIAID ChemDB through PubChem).

Shared fields: growth or infection tests; species: HIV-1; cells: MT-4; read-out: EC50

An empty or dashed field is not shown. Rows are shuffled and stem from different studies. ECn is the concentration giving n% inhibition of infection, replication or growth.

smiles | strain | changes | method | value
C[C@@H]1[C@@H]2O[C@]3(NC(=O)OC(C)(C)C)[C@@H](C)[C@H]1O[C@H]2[C@@H]3O | NL4-3 | - | MTT | >88 µM
O=c1cccc(O)c(O)c1O | IIIB | - | cytopathic effect / MTT | >3 µM
Cc1ccccc1-n1ccc(CN2CCN(C[C@@H](O)C[C@@H](Cc3cccnc3)C(=O)N[C@H]3c4ccccc4OC[C@H]3O)[C@H](C(=O)NCC(F)(F)F)C2)c1 | V-18C Clinical isolate | PR-L10I M36I N37D M46I R57K L63P A71V G73S I84V L90M I93L | p24 | <0.031 µM
CC(=O)O[C@H]1[C@H](C)[C@@H]2O[C@](NC(=O)OC(C)(C)C)([C@H]1C)[C@H]1O[C@@H]21 | NL4-3 | - | MTT | >76 µM
Cn1ncc2c1S(=O)(=O)N(CCc1ccccc1)C(=O)N2CCc1ccccc1Cl | IIIB | - | MTT | >300.1 µM
CC1(C)S[C@H]([C@H](NC(=O)Cc2ccccc2)C(=O)NCc2ccccc2)N[C@H]1C(=O)NCCNC(=O)[C@@H]1N[C@@H]([C@H](NC(=O)Cc2ccccc2)C(=O)NCc2ccccc2)SC1(C)C | RF | - | p24 | 0.06 µM
C[C@H]1[C@H](O)[C@H](C)[C@@]2(NC(=O)OC(C)(C)C)O[C@@H]1[C@H]1O[C@H]12 | NL4-3 | - | MTT | >440 µM
N#CCN1C(=O)N(Cc2ccccc2)S(=O)(=O)c2cscc21 | IIIB | - | MTT | 0.9 µM
O=c1[nH]cnc2c1ncn2[C@H]1CC[C@@H](CO)O1 | WT | - | cytopathic effect / MTT | 10 µM
Cc1cc(Br)cc(C)c1Oc1ncc(NC(=O)C(F)(F)F)c(Nc2ccc(C#N)cc2)n1 | RES056 | - | MTT | 11 µM
c1cc(CN2CCCNCCNCCCNCC2)ccc1CN1CCCNCCNCCCNCC1 | NL4-3 | - | MTT | 0.001 µM
N#Cc1ccccc1-n1ccc(CN2CCN(C[C@@H](O)C[C@@H](Cc3cccnc3)C(=O)N[C@H]3c4ccccc4OC[C@H]3O)[C@H](C(=O)NCC(F)(F)F)C2)c1 | NL4-3 WT | - | p24 | <0.046 µM
Cc1cn([C@H]2C[C@H](N=[N+]=[N-])[C@@H](CO)O2)c(=O)[nH]c1=O | IIIB | - | cytopathic effect / MTT | 0.01 µM
CC(C)(C)NC(=O)[C@@H]1C[C@@H]2CCCC[C@@H]2CN1C[C@@H](O)[C@H](Cc1ccccc1)NC(=O)[C@H](CC(N)=O)NC(=O)c1ccc2ccccc2n1 | IIIB | - | cytopathic effect / MTT | 0.018 µM
Cc1cn([C@@H]2O[C@H](CO[Si](C)(C)C(C)(C)C)C3(OS(=O)(=O)C=C3N)[C@H]2O[Si](C)(C)C(C)(C)C)c(=O)n(CC(=O)N[C@H](C(=O)OCc2ccccc2)C(C)C)c1=O | IIIB | - | cytopathic effect / trypan blue | 4.1 µM
O=c1[nH]c(=O)n([C@H]2C[C@H](F)[C@@H](CO)O2)cc1Cl | IIIB | - | cytopathic effect | 1.8 ± 0.4 µM
O=c1[nH]c(=O)n([C@H]2C[C@H](F)[C@@H](CO)O2)cc1CO | IIIB | - | cytopathic effect / trypan blue | 100 µM
Cc1cc(C=O)cc(C)c1Oc1ncc(NC(=O)C(F)(F)F)c(Nc2ccc(C#N)cc2)n1 | RES056 | - | MTT | 35 µM
CC(C)(C)NC(=O)[C@@H]1C[C@@H]2CCCC[C@@H]2CN1C[C@@H](OC(=O)CCCCOc1ccc(C[C@H](N)C(=O)O)cc1)[C@H](Cc1ccccc1)NC(=O)[C@H](CC(N)=O)NC(=O)c1ccc2ccccc2n1 | IIIB | - | cytopathic effect / MTT | 0.16 µM
Cc1cn([C@H]2C=C[C@@H](CO)O2)c(=O)[nH]c1=O | IIIB | - | cytopathic effect / MTT | 0.81 µM
Cc1cn([C@@H]2O[C@H](CO[Si](C)(C)C(C)(C)C)[C@@]3(OS(=O)(=O)C=C3N)[C@H]2O[Si](C)(C)C(C)(C)C)c(=O)n(CC(=O)N[C@@H](CCC(=O)O)C(=O)O)c1=O | IIIB | - | cytopathic effect / trypan blue | 5 µM
CC(C)(C)NC(=O)[C@@H]1CN(Cc2cccnc2)CCN1C[C@H](C[C@@H](Cc1ccccc1)C(=O)N[C@H]1c2ccccc2C[C@H]1OC(=O)CCCCO[C@H]1O[C@H](CO)[C@@H](O)[C@H](O)[C@@H]1O)OC(=O)CCCCO[C@H]1O[C@H](CO)[C@@H](O)[C@H](O)[C@@H]1O | IIIB | - | cytopathic effect / MTT | 2.233 µM
CC(=O)O[C@H]1[C@H](C)[C@@H]2O[C@@](NC(=O)OC(C)(C)C)([C@@H]3O[C@H]23)[C@H]1C | NL4-3 | - | MTT | >76 µM
O=c1ccc(-c2ccc(C(F)(F)F)cc2)c(O)c(O)c1O | IIIB | - | cytopathic effect / MTT | >5 µM
Nc1ccn([C@H]2CC[C@@H](CO)O2)c(=O)n1 | IIIB | - | cytopathic effect / MTT | 0.3 µg/mL
Cc1cn([C@H]2C[C@H](F)[C@@H](CO)O2)c(=O)[nH]c1=O | IIIB | - | cytopathic effect | 0.016 ± 0.003 µM
CC(=O)Nc1cccc(-c2ccc(=O)c(O)c(O)c2O)c1 | IIIB | - | cytopathic effect / MTT | >8 µM
Cc1cn([C@H]2C=C[C@@H](CO)O2)c(=O)[nH]c1=O | - | - | syncytia | 1 µM
CC(C)(C)NC(=O)[C@@H]1CN(Cc2cccnc2)CCN1C[C@@H](O)C[C@@H](Cc1ccccc1)C(=O)N[C@H]1c2ccccc2C[C@H]1OC(=O)CCCCOc1ccc(C[C@H](N)C(=O)O)cc1 | IIIB | - | cytopathic effect / MTT | 0.047 µM
CC(=O)c1ccc(C)cc1NC(C(N)=O)c1c(Cl)cccc1Cl | IIIB-R | - | MTT | >10 µM
C[C@@H]1[C@@H]2O[C@]3(NC(=O)OC(C)(C)C)[C@@H](C)[C@H]1O[C@H]2[C@@H]3I | NL4-3 | - | MTT | >63 µM
O=C1N(Cc2ccccc2Cl)c2cscc2S(=O)(=O)N1Cc1ccccc1 | IIIB | - | MTT | 0.1 µM
O=S(=O)(O)OC1C(OS(=O)(=O)O)C(OS(=O)(=O)O)C(OS(=O)(=O)O)C(OS(=O)(=O)O)C1OS(=O)(=O)O | NL4-3 | GP120-N323D | cytopathic effect / MTT | 9.6 µg/mL
CC(C)(C)OC(=O)N1CCCN(C(=O)OC(C)(C)C)CCN(C(=O)OC(C)(C)C)CCCN(CCCCC(=O)Nc2ccn([C@H]3CC[C@@H](COC(=O)CCCCN4CCCN(C(=O)OC(C)(C)C)CCN(C(=O)OC(C)(C)C)CCCN(C(=O)OC(C)(C)C)CC4)O3)c(=O)n2)CC1 | - | - | syncytia | 1 µM
N#Cc1ccc(Nc2nc(Oc3c(Cl)cccc3Cl)ncc2[N+](=O)[O-])cc1 | IIIB | - | MTT | 3.2 µM
Cc1cn([C@H]2C[C@H](F)[C@@H](COCP(=O)(O)O)O2)c(=O)[nH]c1=O | - | - | - | ~1 µM
CC(C)(C)OC(=O)N1CCCN(C(=O)OC(C)(C)C)CCN(C(=O)OC(C)(C)C)CCCN(C(=O)CCCC(=O)OC[C@@H]2CC[C@H](n3cnc4c(=O)[nH]cnc43)O2)CC1 | - | - | syncytia | >50 µM
C[C@H]1[C@@H]2O[C@]3(NC(=O)OC(C)(C)C)[C@@H](C)[C@H]1O[C@H]2[C@@H]3Br | NL4-3 | - | MTT | >72 µM
O=C(N[C@H]1c2ccccc2OC[C@H]1O)[C@H](Cc1cccnc1)C[C@H](O)CN1CCN(Cc2ccn(-c3ccccc3Cl)c2)C[C@H]1C(=O)NCC(F)(F)F | V-18C Clinical isolate | PR-L10I M36I N37D M46I R57K L63P A71V G73S I84V L90M I93L | p24 | <0.031 µM
CC(C)Nc1cccnc1N1CCN(C(=O)c2cc3cc(NS(C)(=O)=O)ccc3[nH]2)CC1 | IIIB | - | MTT | 0.507 µM
Nc1ccn([C@H]2CO[C@@H](CO)S2)c(=O)n1 | IIIB | - | cytopathic effect / MTT | 20 µM
Cn1ncc2c1S(=O)(=O)N(CCc1ccccc1)C(=O)N2CCc1ccc(C#N)cc1 | IIIB | - | MTT | >20.4 µM
CC1(C)S[C@@H]2[C@H](NC(=O)Cc3ccccc3)C(=O)N2[C@H]1C(=O)NCCNC(=O)[C@@H]1N2C(=O)[C@@H](NC(=O)Cc3ccccc3)[C@H]2SC1(C)C | RF | - | cytopathic effect | >100 µM
Cc1cn([C@H]2C[C@H](N=[N+]=[N-])[C@@H](CO)O2)c(=O)[nH]c1=O | NNRTI-resistant (RT K103N Y181C) | RT-K103N Y181C | cytopathic effect / MTT | 0.07 µM
Cc1cn([C@H]2C=C[C@@H](COC(=O)CCCCN3CCCN(C(=O)OC(C)(C)C)CCN(C(=O)OC(C)(C)C)CCCN(C(=O)OC(C)(C)C)CC3)O2)c(=O)[nH]c1=O | - | - | syncytia | 10 µM
CC(C)(C)NC(=O)[C@@H]1CN(Cc2cccnc2)CCN1C[C@@H](O)C[C@@H](Cc1ccccc1)C(=O)N[C@H]1c2ccccc2C[C@H]1O | IIIB | - | cytopathic effect / MTT | 0.022 µM
CO[P@](=O)(c1cc(C)cc(/C=C/C#N)c1)c1c(C(N)=O)[nH]c2ccc(Cl)c(F)c12 | IIIB | - | - | 0.001 µM
O=C(N[C@H]1c2ccccc2OC[C@H]1O)[C@H](Cc1cccnc1)C[C@H](O)CN1CCN(Cc2ccn(-c3ccccc3F)c2)C[C@H]1C(=O)NCC(F)(F)F | K-60C Clinical isolate | PR-L10I M46I I54V Q58E L63P I64V V77I V82F I84V L90M I93L | p24 | <0.062 µM
N#Cc1ccc(Nc2nc(Oc3c(Cl)cc(Cl)cc3Cl)ncc2[N+](=O)[O-])cc1 | IIIB | - | MTT | 7.4 µM
Cc1c(OC(=O)CCCCO[C@H]2O[C@H](CO)[C@@H](O)[C@H](O)[C@@H]2O)cccc1C(=O)N[C@@H](CSc1ccccc1)[C@H](O)CN1C[C@H]2CCCC[C@H]2C[C@H]1C(=O)NC(C)(C)C | IIIB | - | cytopathic effect / MTT | 0.24 µM
Cc1cc(C#N)cc(C)c1Oc1ncc([N+](=O)[O-])c(Nc2ccc(C#N)cc2)n1 | RES056 | - | MTT | ≥10.3 µM
O=C(N[C@H]1c2ccccc2OC[C@H]1O)[C@H](Cc1cccnc1)C[C@H](O)CN1CCN(Cc2ccn(-c3ccc(C(F)(F)F)cc3)c2)C[C@H]1C(=O)NCC(F)(F)F | NL4-3 WT | - | p24 | <0.015 µM

Repeating the first 6 entries:

C[C@@H]1[C@@H]2O[C@]3(NC(=O)OC(C)(C)C)[C@@H](C)[C@H]1O[C@H]2[C@@H]3O ; strain: NL4-3 ; method: MTT ; value: >88 µM
O=c1cccc(O)c(O)c1O ; strain: IIIB ; method: cytopathic effect / MTT ; value: >3 µM
Cc1ccccc1-n1ccc(CN2CCN(C[C@@H](O)C[C@@H](Cc3cccnc3)C(=O)N[C@H]3c4ccccc4OC[C@H]3O)[C@H](C(=O)NCC(F)(F)F)C2)c1 ; strain: V-18C Clinical isolate ; changes: PR-L10I M36I N37D M46I R57K L63P A71V G73S I84V L90M I93L ; method: p24 ; value: <0.031 µM
CC(=O)O[C@H]1[C@H](C)[C@@H]2O[C@](NC(=O)OC(C)(C)C)([C@H]1C)[C@H]1O[C@@H]21 ; strain: NL4-3 ; method: MTT ; value: >76 µM
Cn1ncc2c1S(=O)(=O)N(CCc1ccccc1)C(=O)N2CCc1ccccc1Cl ; strain: IIIB ; method: MTT ; value: >300.1 µM
CC1(C)S[C@H]([C@H](NC(=O)Cc2ccccc2)C(=O)NCc2ccccc2)N[C@H]1C(=O)NCCNC(=O)[C@@H]1N[C@@H]([C@H](NC(=O)Cc2ccccc2)C(=O)NCc2ccccc2)SC1(C)C ; strain: RF ; method: p24 ; value: 0.06 µM